Experimental data reported in patent US20240109955A1 (published 2024).

Columns and labels:
Assay in all cases: cell-based or functional assay
[1] = target: SARS-CoV-2 spike (S) protein of Omicron sublineage BA.2.75 (G446S) (SARS-CoV-2, UniProt P0DTC2 14-1273)
[2] = target: SARS-CoV-2 spike (S) protein of Omicron sublineage BQ.1.1 (R346T, K444T, F486V) (SARS-CoV-2, UniProt P0DTC2 14-1273)
[3] = target: SARS-CoV-2 spike (S) protein of Omicron sublineage BJ.1 (R346T, V445P, G446S) (SARS-CoV-2, UniProt P0DTC2 14-1273)
[4] = target: SARS-CoV-2 spike (S) protein, Omicron sublineage BA.1.1 (R346K) (SARS-CoV-2, UniProt P0DTC2 14-1273)
[5] = target: SARS-CoV-2 spike (S) protein, Omicron sublineage BA.4.6 (R346T, F486V) (SARS-CoV-2, UniProt P0DTC2 14-1273)
[6] = target: SARS-CoV-2 spike (S) protein, Omicron sublineage BA.4.7 (R346S, F486V) (SARS-CoV-2, UniProt P0DTC2 14-1273)
[7] = target: SARS-CoV-2 spike (S) protein, Omicron sublineage BF.7 (R346T, F486V) (SARS-CoV-2, UniProt P0DTC2 14-1273)
[8] = target: SARS-CoV-2 spike (S) protein, Omicron sublineage BQ 1.1 (R346T, K444T, F486V) (SARS-CoV-2, UniProt P0DTC2 14-1273)

Row | Binder | IC80, pseudovirus neutralization [1] | IC50, pseudovirus neutralization [2] | IC80, pseudovirus neutralization [2] | IC80, pseudovirus neutralization [3] | IC50, pseudovirus neutralization [1] | IC50, pseudovirus neutralization [3] | IC50, pseudovirus neutralization [4] | IC80, pseudovirus neutralization [4] | IC50, pseudovirus neutralization [5] | IC80, pseudovirus neutralization [5] | IC50, pseudovirus neutralization [6] | IC80, pseudovirus neutralization [6] | IC50, pseudovirus neutralization [7] | IC80, pseudovirus neutralization [7] | IC50, pseudovirus neutralization [8] | IC80, pseudovirus neutralization [8]
1 | A23-58.1HC/58.1LC_93VGLTG (antibody, V domains shown) VH: QMQLVQSGPEVKKPGTSVKVSCKASGFTFTSSAVQWVRQRQRLEWIGWIVVGSGNTNYAQKFQERVTITRDMSTSTAYMELSSLRSEDTAVYYCAAPNCSNVVCYDGFDIWGQGTMVTVSS VL: EIVLTQSPGTLSLSPGERATLSCRASQSVSSSYLAWYQQKPGQAPRLLIYSASSRATGIPDRFSGSGSGTDFTLTISRLEPEDFAVYFCQQYVGLTGWTFGQGTKVEIK | 1 nM | 7 nM | 28 nM | 2 nM | – | – | – | – | – | – | – | – | – | – | – | –
2 | combination of MX830 and MX831 (other) chain 1: QTVVTQEPSFSVSPGGTVTLTCGLSSGSVSTAYFPSWYQQTPGQAPRTLIYGTNTRSSGVPDRFSGSILGNKAALTITGAQADDESDYYCVLYMGRGIVVFGGGTKLTVLGGSSGEIVLTQSPGTLSLSPGERATLSCRASQSVSSSYLAWYQQKPGQAPRLLIYSASSRATGIPDRFSGSGSGTDFTLTISRLEPEDFAVYFCQQYGGLTGWTFGQGTKVEIKGGGGSGGSGSGGGGSASGSGQMQLVQSGPEVKKPGTSVKVSCKASGFTFTSSAVQWVRQRQRLEWIGWIVVGSGNTNYAQKFQERVTITRDMSTSTAYMELSSLRSEDTAVYYCAAPNCSNVVCYDGFDIWGQGTMVTVSSGGSSGQVQLVESGGGVVQPGRSLRLSCAASGFTLSSYGMHWVRQAPGKGLEWVAVISYDGSNKYYVDSVKGRFTISRDNSKNTLYLQMNSLRAEDTAVYYCRWAYWELLPDYYYGMDVWGQGTTVTVSSASGGSGDKTHTCPPCPAPELLGGPSVFLFPPKPKDTLMISRTPEVTCVVVDVSHEDPEVKFNWYVDGVEVHNAKTKPREEQYNSYVVSVLTVLHQDWLNGKEYKCKVSNKALPAPIEKTISKAKGQPREPQVYTLPPSRDELTKNQVSLTCLVKGFYPSDIAVEWESNGQPENNYKTTPPVLDSDGSFFKKLTVDKSRWQQGNVFSCSVLHEALHSHYTQKSLSLSPG chain 2: DIQMTQSPSSVSASVGDRVIITCRASQGISSWLAWYQQKPGKAPKVLIYDASSLQSGVPSRFSGSGYGTDFTLTISSLQPEDSATYYCQQAKSFPITFGQGTRLEIKGGSSGEIVLTQSPGTLSLSPGERATLSCRASQSVSSSYLAWYQQKPGQAPRLLIYSASSRATGIPDRFSGSGSGTDFTLTISRLEPEDFAVYFCQQYGGLTGWTFGQGTKVEIKGGGGSGGSGSGGGGSASGSGQMQLVQSGPEVKKPGTSVKVSCKASGFTFTSSAVQWVRQRQRLEWIGWIVVGSGNTNYAQKFQERVTITRDMSTSTAYMELSSLRSEDTAVYYCAAPNCSNVVCYDGFDIWGQGTMVTVSSGGSSGQVQLVESGGGVVQPGRSLRLSCAASGFTFSSYAFHWVRQAPGKGLEWVAVISYDGSNQYYADSVKGRFTISRDNSKNTLYLQMNSLRADDTAVYYCARDLAIAVAGTWHYYNGMDVWGQGTTVTVSSASGGSGDKTHTCPPCPAPELLGGPSVFLFPPKPKDTLMISRTPEVTCVVVDVSHEDPEVKFNWYVDGVEVHNAKTKPREEQYNSYVVSVLTVLHQDWLNGKEYKCKVSNKALPAPIEKTISKAKGQPREPQVYTLPPSRDELTKNQVSLTCLVKGFYPSDIAVEWESNGQPENNYKTTPPVLDSDGSFFKKLTVDKSRWQQGNVFSCSVLHEALHSHYTQKSLSLSPG | 2 nM | 261 nM | 878 nM | 29 nM | 1 nM | 6 nM | – | – | – | – | – | – | – | – | – | –
3 | MX831 (bispecific antibody) DIQMTQSPSSVSASVGDRVIITCRASQGISSWLAWYQQKPGKAPKVLIYDASSLQSGVPSRFSGSGYGTDFTLTISSLQPEDSATYYCQQAKSFPITFGQGTRLEIKGGSSGEIVLTQSPGTLSLSPGERATLSCRASQSVSSSYLAWYQQKPGQAPRLLIYSASSRATGIPDRFSGSGSGTDFTLTISRLEPEDFAVYFCQQYGGLTGWTFGQGTKVEIKGGGGSGGSGSGGGGSASGSGQMQLVQSGPEVKKPGTSVKVSCKASGFTFTSSAVQWVRQRQRLEWIGWIVVGSGNTNYAQKFQERVTITRDMSTSTAYMELSSLRSEDTAVYYCAAPNCSNVVCYDGFDIWGQGTMVTVSSGGSSGQVQLVESGGGVVQPGRSLRLSCAASGFTFSSYAFHWVRQAPGKGLEWVAVISYDGSNQYYADSVKGRFTISRDNSKNTLYLQMNSLRADDTAVYYCARDLAIAVAGTWHYYNGMDVWGQGTTVTVSSASGGSGDKTHTCPPCPAPELLGGPSVFLFPPKPKDTLMISRTPEVTCVVVDVSHEDPEVKFNWYVDGVEVHNAKTKPREEQYNSYVVSVLTVLHQDWLNGKEYKCKVSNKALPAPIEKTISKAKGQPREPQVYTLPPSRDELTKNQVSLTCLVKGFYPSDIAVEWESNGQPENNYKTTPPVLDSDGSFFKKLTVDKSRWQQGNVFSCSVLHEALHSHYTQKSLSLSPG | – | – | – | – | – | – | 17.2 nM | 50 nM | 27.9 nM | 58.5 nM | 3.08 nM | 19.1 nM | 3.73 nM | 21.7 nM | 4210 nM | > 10000 nM
4 | MX835 tetravalent, trispecific antibody (A23-58H/A23-58L94GLTG, A19-46, A23-58H/A23-58L94GLTG, A19-61) (trispecific antibody) chain 1: QTVVTQEPSFSVSPGGTVTLTCGLSSGSVSTAYFPSWYQQTPGQAPRTLIYGTNTRSSGVPDRFSGSILGNKAALTITGAQADDESDYYCVLYMGRGIVVFGGGTKLTVLGGSSGEIVLTQSPGTLSLSPGERATLSCRASQSVSSSYLAWYQQKPGQAPRLLIYSASSRATGIPDRFSGSGSGTDFTLTISRLEPEDFAVYFCQQYGGLTGWTFGQGTKVEIKGGGGSGGSGSGGGGSASGSGQMQLVQSGPEVKKPGTSVKVSCKASGFTFTSSAVQWVRQRQRLEWIGWIVVGSGNTNYAQKFQERVTITRDMSTSTAYMELSSLRSEDTAVYYCAAPNCSNVVCYDGFDIWGQGTMVTVSSGGSSGQVQLVESGGGVVQPGRSLRLSCAASGFTLSSYGMHWVRQAPGKGLEWVAVISYDGSNKYYVDSVKGRFTISRDNSKNTLYLQMNSLRAEDTAVYYCRWAYWELLPDYYYGMDVWGQGTTVTVSSASGGSGDKTHTCPPCPAPELLGGPSVFLFPPKPKDTLMISRTPEVTCVVVDVSHEDPEVKFNWYVDGVEVHNAKTKPREEQYNSYVVSVLTVLHQDWLNGKEYKCKVSNKALPAPIEKTISKAKGQPREPQVYTLPPCRDELTKNQVSLWCLVKGFYPSDIAVEWESNGQPENNYKTTPPVLDSDGSFFKKLTVDKSRWQQGNVFSCSVLHEALHSHYTQKSLSLSPG chain 2: EIVLTQSPGTLSLSPGERATLSCRASQSVSSSYLAWYQQKPGQAPRLLIYSASSRATGIPDRFSGSGSGTDFTLTISRLEPEDFAVYFCQQYGGLTGWTFGQGTKVEIKGGSSGDIQMTQSPSSVSASVGDRVIITCRASQGISSWLAWYQQKPGKAPKVLIYDASSLQSGVPSRFSGSGYGTDFTLTISSLQPEDSATYYCQQAKSFPITFGQGTRLEIKGGGGSGGSGSGGGGSASGSGQVQLVESGGGVVQPGRSLRLSCAASGFTFSSYAFHWVRQAPGKGLEWVAVISYDGSNQYYADSVKGRFTISRDNSKNTLYLQMNSLRADDTAVYYCARDLAIAVAGTWHYYNGMDVWGQGTTVTVSSGGSSGQMQLVQSGPEVKKPGTSVKVSCKASGFTFTSSAVQWVRQRQRLEWIGWIVVGSGNTNYAQKFQERVTITRDMSTSTAYMELSSLRSEDTAVYYCAAPNCSNVVCYDGFDIWGQGTMVTVSSASGGSGDKTHTCPPCPAPELLGGPSVFLFPPKPKDTLMISRTPEVTCVVVDVSHEDPEVKFNWYVDGVEVHNAKTKPREEQYNSYVVSVLTVLHQDWLNGKEYKCKVSNKALPAPIEKTISKAKGQPREPQVCTLPPSRDELTKNQVSLSCAVKGFYPSDIAVEWESNGQPENNYKTTPPVLDSDGSFFLVSKLTVDKSRWQQGNVFSCSVLHEALHSHYTQKSLSLSPG | 2 nM | 369 nM | 1620 nM | 23 nM | 1 nM | 2 nM | – | – | – | – | – | – | – | – | – | –
5 | MX830 (bispecific antibody) QTVVTQEPSFSVSPGGTVTLTCGLSSGSVSTAYFPSWYQQTPGQAPRTLIYGTNTRSSGVPDRFSGSILGNKAALTITGAQADDESDYYCVLYMGRGIVVFGGGTKLTVLGGSSGEIVLTQSPGTLSLSPGERATLSCRASQSVSSSYLAWYQQKPGQAPRLLIYSASSRATGIPDRFSGSGSGTDFTLTISRLEPEDFAVYFCQQYGGLTGWTFGQGTKVEIKGGGGSGGSGSGGGGSASGSGQMQLVQSGPEVKKPGTSVKVSCKASGFTFTSSAVQWVRQRQRLEWIGWIVVGSGNTNYAQKFQERVTITRDMSTSTAYMELSSLRSEDTAVYYCAAPNCSNVVCYDGFDIWGQGTMVTVSSGGSSGQVQLVESGGGVVQPGRSLRLSCAASGFTLSSYGMHWVRQAPGKGLEWVAVISYDGSNKYYVDSVKGRFTISRDNSKNTLYLQMNSLRAEDTAVYYCRWAYWELLPDYYYGMDVWGQGTTVTVSSASGGSGDKTHTCPPCPAPELLGGPSVFLFPPKPKDTLMISRTPEVTCVVVDVSHEDPEVKFNWYVDGVEVHNAKTKPREEQYNSYVVSVLTVLHQDWLNGKEYKCKVSNKALPAPIEKTISKAKGQPREPQVYTLPPSRDELTKNQVSLTCLVKGFYPSDIAVEWESNGQPENNYKTTPPVLDSDGSFFKKLTVDKSRWQQGNVFSCSVLHEALHSHYTQKSLSLSPG | – | – | – | – | – | – | 10.4 nM | 11.5 nM | 207 nM | 4650 nM | 276 nM | > 10000 nM | 860 nM | 4380 nM | 629 nM | 2710 nM
